Here are results for 6 substances from publication PMC9017343.

The target in this assay is SARS-CoV S trimer (ectodomain) (SARS-CoV) (UniProt P59594). Description: SPR.
For the substance ADG-2, the Kd was determined as 1.41 pM and the koff stood at 1.73e-06 s⁻¹.

For the substance CR3022, the Kd is 0.759 pM and the koff was 6.52e-08 s⁻¹.

In turn, DH1047 had a Kd of 1.11 pM and a koff of 1.69e-07 s⁻¹.

With REGN10985, the Kd was 4650 pM and the koff worked out at 0.0019 s⁻¹.

S2H97 had a Kd of 70.6 pM and a koff of 3.67e-05 s⁻¹.

In turn, S2X259 returned a Kd of 3.65 pM and a koff of 8.78e-07 s⁻¹.
